Data taken from ChEMBL document CHEMBL3988442, “University of Dundee, Small-Polar-MMV Screening Library” (2021).

Values are the deposited “Percent Effect”, in %.
The controls that fix the scale are not given in the record; negative values are as filed.
The entries come from a sample that favours strong results.
Two or more numbers in one place are separate tests of the same structure; such repeats can differ widely.
A dash means the value is not listed here; it may have been measured.

Mtb glucose medium: 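Growth of Mycobacterium tuberculosis over 3 days (7H9 medium with glucose and tyloxapol); the read-out is not stated. Compounds at 50 µM. Direction is inferred from retests: higher values go with more growth inhibition. Size under these conditions: about 69,000 compounds, about 760 of them at 50% or above in at least one test.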
Mtb cholesterol medium: 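Growth of Mycobacterium tuberculosis over 4 days (cholesterol / DPPC medium with tyloxapol); the read-out is not stated. Tested at 50 µM. The record gives no direction; compounds that gave an IC50 in retests scored well above the rest, so higher reads as more growth inhibition. Of about 69,000 compounds tested this way, about 370 (0.54%) reached 50% or more in at least one test.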

| structure | Mtb glucose medium | Mtb cholesterol medium |
|---|---|---|
| `CCc1cnc(N2CCN(Cc3ccno3)CC2)s1` | 15.37 | - |
| `FC1(F)CCN(Cc2cccnc2)CC12CCN(c1ccccn1)C2.O=C(O)C(F)(F)F.O=C(O)C(F)(F)F.O=C(O)C(F)(F)F` (stereo not given) | 45.81 | -10.45 |
| `CC(C)C(C(=O)NCc1ccccc1-n1cccn1)N(C)C` (stereo not given) | -8.213 | - |
| `Cc1cc(C2CCC2)nc(N2CCC3(CCCNC3=O)C2)n1` (stereo not given) | 3.621 | - |
| `Cc1cc(CN(C)Cc2ncc(-c3cccs3)o2)no1` | 21.69 and 12.41 | - |
| `O=C(NCC1(CO)CC1)c1ccccc1Cl` | -0.0591 | -3.802 |
| `O=C(NCCN1CCOCC1)c1ccc(-c2ccccc2)[nH]c1=O` | - | -16.02 |
| `OCc1cc2ccccc2nc1N1CCCC1` | 22.24 | 14.41 |
| `CC(C)Cc1cc(NC(=O)c2ccc[nH]2)n(C)n1` | 1.639 | - |
| `O=C1Nc2ccccc2CN(C/C=C/c2ccccc2)C12CCNC2` (stereo not given) | 56.39 | - |
| `N#Cc1cnc2cc(F)cc(F)c2c1NC1CCN(CC(N)=O)CC1` | 110.5 and -4.128 | - |
| `Cc1ccc(CNCC2Cn3nnc(-c4cccc(F)c4)c3CO2)o1.O=C(O)C(F)(F)F` (stereo not given) | 52.68 and 37.98 | - |
| `CC(C)c1nc(CSc2nnc(C3CC3)n2CC(N)=O)no1` | -13.47 | - |
| `c1ccc(NCc2ccsc2)c(Cn2cncn2)c1` | 24.11 | 4.004 |
| `CC(C)c1cc(CN2CCC(N)CC2)no1` | 6.803 | - |
| `Cc1nc[nH]c1CN1CCCC12CCN(c1nc3ccccc3s1)CC2` | 63.01 | - |
| `CC(C)OCCN1CCN(C(=O)c2cccc(-n3cccn3)n2)CC1` | 1.47 | 10.89 |
| `Cc1nc(N2CCCC2)nc2c1CCN(C(=O)CN(C)C)CC2.O=C(O)C(F)(F)F` | -5.644 and -17.39 | 20.65 |
| `COc1ccc(C2CCCN2S(=O)(=O)N(C)C)cc1` (stereo not given) | -3.523 | - |
| `COc1ccc(CNc2n[nH]c(C)n2)cc1` | 11.9 | - |
| `O=C(NCc1ccc(OCC2CC2)nc1)C1COc2ccccc2O1` (stereo not given) | -2.171 | - |
| `Cc1nccn1CCCn1cncc1-c1ccc2c(c1)CCCN2C.Cl` | -19.77 | 19.26 and -0.06633 |
| `COCC(=O)NC(C)Cc1cccc(Cl)c1` (stereo not given) | 62.66 | - |
| `Cc1cc(=O)[nH]c(SC(C)C(=O)N2CCCN(C3CCCC3)CC2)n1` (stereo not given) | -8.551 | - |
| `CCN(C(=O)CCCOC)C(c1ccc(Cl)cc1)c1ccccn1` (stereo not given) | - | 73.81 |
| `CCC[C@@H]1CN(Cc2cc3c(cc2OC)OCCO3)C[C@H]1C(=O)O` | - | -0.3692 and -8.028 |
| `Cl.Cl.Fc1cccc(-c2c[nH]c(C3CCCN3)n2)c1` (stereo not given) | -3.202 | - |
| `O=C(C1CC1)N1CCN(C(=O)C2CC(=O)N(c3ccccc3Br)C2)CC1` (stereo not given) | -36.04 | -23.83 |
| `Cc1cnccc1CNCc1ccc(OC23CCCN(CC2)C3)cc1` (stereo not given) | 32.18 | 22.2 |
| `CC1c2ccsc2CCN1Cc1cc2c(cc1O)OCO2` (stereo not given) | 10.31 | - |
| `O=C(NCC1COCCO1)c1csc(Cc2ccccc2)n1` (stereo not given) | 15.15 | - |
| `O=C(NCC1CC1)c1nnc2ccc(Cl)cc2n1` | 71.3 and 75.77 | 63.41 |
| `CCCNC(=O)c1cc(C(C)C)nc(N2CCCC2)n1` | 93.74 | - |
| `Cc1nn(C)cc1CN(Cc1ccccn1)Cc1ccccc1Cl` | 31.81 | - |
| `CN(C)S(=O)(=O)c1ccc(F)c(NC(=O)COCC2CC2)c1` | 48.72 and 47.33 | - |
| `NS(=O)(=O)CC1CCN(c2ncccc2C(F)(F)F)CC1` | -16.95 | -11.74 |
| `[H][C@]12CCN(C(=O)C3CCCO3)CC[C@@]1([H])S(=O)(=O)N(CC(=O)N(C)C)C2` (stereo not given in full) | -18.5 and -3.578 | - |
| `CCC(=O)Nc1ccc(F)c(S(=O)(=O)NC(C)(C)C)c1` | -48.39 | - |
| `Cc1nc(C2CCNCC2)cc(N2CCOc3ccccc3C2)n1` | 4.064 | - |
| `COC(=O)c1cccc(CNC(=O)NCCC(F)(F)F)c1` | - | -0.7745 |
| `COC(=O)C1CCN(C(=O)c2nnc3ccc(Cl)cc3n2)CC1` | 39.38 | 19.2 |
| `COC(=O)c1cccc(C(=O)N(C)Cc2cccc(F)c2)c1` | - | -10.12 |
| `Cc1ccccc1OCC(O)CN1CCC(c2ccn[nH]2)CC1` (stereo not given) | -7.618 | - |
| `CC(C)N(CCNc1nc(C2CCCC2)nc2c1cnn2C)C(C)C` | 79.72 | 71.17 and 44.75 |
| `[H][C@@]12CCCN1CCCN(c1nc(CCC)nc3c1cnn3C)C2` | -11.22 | - |
| `COc1ccc(C)cc1CN1CCCC1c1noc(C2CC2)n1` (stereo not given) | 52.46 | - |
| `NC(=O)CSc1nccc(-c2ccc3c(c2)OCO3)n1` | -11.86 | -32.14 |
| `Nc1nnnn1NCc1cccc(Cl)c1Cl` | 63.32 | -4.751 |
| `CCn1nnc2c1C(COCC(=O)N(C)C)CN(Cc1ccoc1)C2` (stereo not given) | - | 70.97 |
| `CCCN1CCCC2(CCN(Cc3noc(C4CCCC4)n3)C2)C1=O` (stereo not given) | - | -26.65 and 8.146 |
| `Cc1nc(CN2CCCC(N(C)c3cnc4ccccc4n3)C2)no1` (stereo not given) | 52.4 | - |
| `CCC(C)Oc1ccc(CNCCNC(C)=O)cc1Cl` (stereo not given) | - | 1.695 |
| `COC(=O)NCC(=O)NC(c1ccc(Cl)cc1)C(F)(F)F` (stereo not given) | -4.277 and 8.791 | - |
| `Cc1ccc(C(N)c2cccs2)cc1` (stereo not given) | -32.98 | - |
| `O=C(O)C(F)(F)F.O=C1COC2(CCN(c3ccccn3)CC2)CN1` | 65.4 | - |
| `COc1ccc(S(=O)(=O)NCc2cccnc2N(C)C)cc1` | -14.04 | - |
| `CSC1(CNC(=O)CCc2ccc(Cl)s2)CCOCC1` | 50.1 | 37.63 |
| `O=C(O)[C@@H]1CN(C(=O)CSCC2CC2)C[C@H]1c1ccccn1` | - | -16.19 and -9.267 |
| `Clc1cc(NCc2nccs2)nc2[nH]ccc12` | 4.755 | - |

8 of the entries, repeated:

For CC(C)c1cc(CN2CCC(N)CC2)no1 the result was Mtb glucose medium: 6.803%.
For COc1ccc(C2CCCN2S(=O)(=O)N(C)C)cc1 (stereo not given) the result was Mtb glucose medium: -3.523%.
For NS(=O)(=O)CC1CCN(c2ncccc2C(F)(F)F)CC1 the result was Mtb glucose medium: -16.95%; Mtb cholesterol medium: -11.74%.
For Cc1nc(C2CCNCC2)cc(N2CCOc3ccccc3C2)n1 the result was Mtb glucose medium: 4.064%.
For O=C(NCc1ccc(OCC2CC2)nc1)C1COc2ccccc2O1 (stereo not given) the result was Mtb glucose medium: -2.171%.
For COc1ccc(CNc2n[nH]c(C)n2)cc1 the result was Mtb glucose medium: 11.9%.
For CCC[C@@H]1CN(Cc2cc3c(cc2OC)OCCO3)C[C@H]1C(=O)O the result was Mtb cholesterol medium: -0.3692% and -8.028%.
For COC(=O)C1CCN(C(=O)c2nnc3ccc(Cl)cc3n2)CC1 the result was Mtb glucose medium: 39.38%; Mtb cholesterol medium: 19.2%.